Read-outs that look alike come from different tables or passages of the source. Peptide text beside a SMILES is read from it.
Legend:
MRSA ATCC 43300 = format: cell-based, Staphylococcus aureus
Description: (§1) A range of Gram-positive and Gram-negative laboratory- and clinical-strain bacteria were used for the experiments. These included laboratory-strain methicillin-sensitive S. aureus (MSSA; including SH1000 and ATCC SA29213), laboratory-strain MRSA (ATCC MRSA43300), clinical-strain MRSA (MRSA-OS; an IK isolate), laboratory-strain methicillin-sensitive Staphylococcus epidermidis (MSSE; ATCC SE12228), laboratory invasive-strain P. aeruginosa (PAO1-L), and clinical cytotoxic-strain P. aeruginosa (PA-OS; an IK isolate).
(§2) In vitro antimicrobial efficacy of the antibiotics and designed HDPs was determined using an established MIC assay with broth microdilution method approved by the Clinical and Laboratory Standards Institute (CLSI)[64]. Briefly, the microorganisms were cultured on Tryptone Soya Agar (TSA) and incubated overnight for 18–21 h at 37 °C. Bacterial inoculums were subsequently prepared using the direct colony suspension method. Three to five bacterial colonies were obtained from the agar plate and inoculated into an Eppendorf tube containing 1 ml of cation-adjusted Muller-Hinton broth (caMHB), consisting of 20–25 mg/L calcium ions (Ca^2+) and 10–12.5 mg/L magnesium ions (Mg^2+). The bacterial suspension was adjusted to achieve a turbidity equivalent to 0.1 OD600 or 0.5 MacFarland, containing ~ 1.5 × 10^8 colony-forming unit (CFU)/ml, which was then further diluted in 1:150 in caMHB to reach a final bacterial concentration of ~ 1 × 10^6 colony forming units (CFU)/ml. Each treatment (peptide or antibiotic) was prepared in 1:2 serial dilution in 96-well polypropylene microplates (with a final treatment volume of 50 μl per well), followed by the addition of 50 μl of 1 × 10^6 CFU/ml bacteria into each well (with a final bacterial concentration of 5 × 10^5 CFU/ml).

MRSA-OS = format: cell-based, Staphylococcus aureus
Description: as §1, §2

S. aureus ATCC 29213 = format: cell-based, Staphylococcus aureus
Description: as §1, §2

S. aureus SH1000 = format: cell-based, Staphylococcus aureus
Description: as §1, §2

[1] = test system: S. epidermidis ATCC 12228; format: cell-based, Staphylococcus epidermidis
Description: as §1, §2

P. aeruginosa PA-OS = format: cell-based
Description: as §1, §2

P. aeruginosa PAO1-L = format: cell-based
Description: as §1, §2

[2] = based on HC50 (hemolysis) divided by MIC without salt
[3] = based on IC50 (HCE-2 cell viability) divided by MIC without salt
[4] = based on LC50 (HCE-2) divided by MIC without salt

With `CC[C@H](C)[C@H](NC(=O)[C@H](CCCNC(=N)N)NC(=O)[C@H](CCC(N)=O)NC(=O)[C@@H](NC(=O)[C@@H](NC(=O)[C@H](CCCNC(=N)N)NC(=O)[C@@H](N)CCCCN)[C@@H](C)CC)C(C)C)C(=O)N[C@@H](CCCCN)C(=O)N[C@@H](CC(=O)O)C(=O)N[C@@H](Cc1c[nH]c2ccccc12)C(=O)N[C@@H](CC(C)C)C(=O)N[C@@H](CCCNC(=N)N)C(=O)N[C@@H](CCCCN)C(=O)N[C@@H](CC(C)C)C(=O)N[C@@H](CS)C(=O)N[C@@H](CCCCN)C(=O)N[C@@H](CCCCN)C(=O)N[C@@H](Cc1c[nH]c2ccccc12)C(=O)O` [CaD23, KRIVQRIKDW LRKLCKKW] (H-KRIVQRIKDWLRKLCKKW-OH; N-terminus and C-terminus assumed) the “Therapeutic index (TI)” value (MRSA ATCC 43300; [2]) was over 4, the “Therapeutic index (TI)” value (MRSA ATCC 43300; [3]) was 1.1 and the “Therapeutic index (TI)” value (MRSA ATCC 43300; [4]) was over 4. The “Therapeutic index (TI)” value (MRSA-OS; [2]) was over 8, the “Therapeutic index (TI)” value (MRSA-OS; [3]) was 2.2 and the “Therapeutic index (TI)” value (MRSA-OS; [4]) was over 8. The “Therapeutic index (TI)” value (S. aureus ATCC 29213; [2]) was over 8, the “Therapeutic index (TI)” value (S. aureus ATCC 29213; [3]) was 2.2 and the “Therapeutic index (TI)” value (S. aureus ATCC 29213; [4]) was over 8. For the same compound, the “Therapeutic index (TI)” value (S. aureus SH1000; [2]) was over 16, the “Therapeutic index (TI)” value (S. aureus SH1000; [3]) was 4.4 and the “Therapeutic index (TI)” value (S. aureus SH1000; [4]) was over 16. For the same compound, the “Therapeutic index (TI)” value [1, 2] was over 16, the “Therapeutic index (TI)” value [1, 3] was 4.4 and the “Therapeutic index (TI)” value [1, 4] was over 16. The “Therapeutic index (TI)” value (P. aeruginosa PA-OS; [2]) was over 8, the “Therapeutic index (TI)” value (P. aeruginosa PA-OS; [3]) was 2.2 and the “Therapeutic index (TI)” value (P. aeruginosa PA-OS; [4]) was over 8. For the same compound, the “Therapeutic index (TI)” value (P. aeruginosa PAO1-L; [2]) was over 4, the “Therapeutic index (TI)” value (P. aeruginosa PAO1-L; [3]) was 1.1 and the “Therapeutic index (TI)” value (P. aeruginosa PAO1-L; [4]) was over 4.

Source: article PMC8443647, “Hybrid derivative of cathelicidin and human beta defensin-2 against Gram-positive bacteria: A novel approach for the treatment of bacterial keratitis” (Scientific Reports, 2021)
